Experimental data as given in ChEMBL document CHEMBL5532636, “An overview of anti-SARS-CoV-2 and anti-inflammatory potential of baicalein and its metabolite baicalin: Insights into molecular mechanisms” (Eur J Med Chem, 2023).

Target: Replicase polyprotein 1ab (Severe acute respiratory syndrome coronavirus 2) (UniProt P0DTD1)
Test: Inhibition of full-length SARS-CoV-2 PLpro expressed in Escherichia coli BL21(DE3) using RLRGG-AMC as substrate at 50 uM preincubated for 10 mins followed by substrate addition measured for 5 mins by FRET assay relative to control
Details: time 15.0 min

O=C(O)[C@H]1O[C@@H](Oc2cc3oc(-c4ccccc4)cc(=O)c3c(O)c2O)[C@H](O)[C@@H](O)[C@@H]1O [BAICALIN]
inhibition: < 50%
